Results of unrelated studies side by side (data: NIAID ChemDB).

Common to all: host cell toxicity; cells: HeLa; read-out: CC50

An empty or dashed field is not shown. CCn: concentration that lowers growth or viability of the cells by n%. Lines come from different laboratories, so protocols vary.

structure | method | value
COc1cnc(-n2ccnc2)c2[nH]cc(C(=O)C(=O)N3CCN(C(=O)c4ccccc4)CC3)c12 | trypan blue | ≤100 µM
CC1CN(C(=O)c2ccccc2)CCN1C(=O)C(=O)c1c[nH]c2cccc(F)c12 | XTT | >300 µM
O=C(C(=O)N1CCN(C(=O)c2ccccc2)CC1)c1c[nH]c2c(-c3cnc[nH]3)ncc(F)c12 | trypan blue | >100 µM
CC(C)C1CN(C(=O)c2ccccc2)CCN1C(=O)C(=O)c1c[nH]c2cccc(F)c12 | XTT | 90 µM
COc1c[nH]c(=O)c2[nH]cc(C(=O)C(=O)N3CCN(C(=O)c4ccccc4)CC3)c12 | trypan blue | >100 µM
CC1CN(C(=O)C(=O)c2c[nH]c3cccc(F)c23)CCN1C(=O)c1ccccc1 | XTT | >300 µM
CCNc1cccc(-c2cccc(-c3cc(=O)n(O)c4ncccc34)c2)c1.O=S=O | - | <100 µM
CC(OC(=O)c1nc(-c2ccccn2)[nH]c(=O)c1O)C1CCCCC1 | luminescence | >50 µM
CC1CN(C(=O)c2ccccc2)CC(C)N1C(=O)C(=O)c1c[nH]c2cccc(F)c12 | XTT | 206 µM
O=C(NCC1CC1)c1nc(-c2ccccn2)[nH]c(=O)c1O | luminescence | >50 µM
COc1cccc2[nH]cc(C(=O)C(=O)N3CCN(C(=O)c4ccccc4)C[C@H]3C)c12 | XTT | >300 µM
CS(=O)(=O)Nc1ccccc1-c1cc(=O)n(O)c2ncccc12 | - | <100 µM
O=C(C(=O)N1CCN(C(=O)c2ccccc2)CC1)c1c[nH]c2c(-c3cn(-c4ccccc4)nn3)ccnc12 | trypan blue | >100 µM
CCCCCCCC=O | trypan blue | 230 µg/mL
COc1cnc(-n2cnc(N)n2)c2[nH]cc(C(=O)C(=O)N3CCN(C(=O)c4ccccc4)[C@H](C)C3)c12 | trypan blue | >100 µM
Cc1[nH]nc2c1c(=O)n(O)c1ncccc21 | - | <100 µM
CC(C)C1CN(C(=O)C(=O)c2c[nH]c3cccc(F)c23)CCN1C(=O)c1ccccc1 | XTT | 130 µM
Cc1cc(C)n(-c2cccc(-c3cc(=O)n(O)c4ncccc34)c2)n1 | - | <100 µM
CC1CN(C(=O)c2ccccc2)C(C)CN1C(=O)C(=O)c1c[nH]c2cccc(F)c12 | XTT | 102 µM
O=c1c(C2CCCC2)c(O)c2cccnc2n1O | - | <100 µM
O=C(OCCCC1CCCCC1)c1nc(-c2ccccn2)[nH]c(=O)c1O | luminescence | >50 µM
COc1cnc(-n2ncnc2C)c2[nH]cc(C(=O)C(=O)N3CCN(C(=O)c4ccccc4)[C@H](C)C3)c12 | trypan blue | >100 µM
CCOC(=O)c1c(O)c2cc(Oc3ccc(N)cc3)cnc2n(O)c1=O | - | <100 µM
COc1cnc(-n2cc(Cl)cn2)c2[nH]cc(C(=O)C(=O)N3CCN(C(=O)c4ccccc4)CC3)c12 | trypan blue | ≤100 µM
CCCC1CN(C(=O)c2ccccc2)CCN1C(=O)C(=O)c1c[nH]c2cccc(F)c12 | XTT | 94 µM
O=c1c(-c2ccccc2)c(O)c2cc(-c3ccccc3-n3cccn3)cnc2n1O | - | <100 µM
CN1CCCC(CNC(=O)c2nc(-c3ccccn3)[nH]c(=O)c2O)C1 | luminescence | >50 µM
Nc1cnc2c(c1)c(O)c(-c1ccccc1)c(=O)n2O | - | <100 µM
CCc1ncn(-c2ncc(OC)c3c(C(=O)C(=O)N4CCN(C(=O)c5ccccc5)CC4)c[nH]c23)n1 | trypan blue | >100 µM

Repeating the final 2 entries:

structure,method,value
Nc1cnc2c(c1)c(O)c(-c1ccccc1)c(=O)n2O,-,<100 µM
CCc1ncn(-c2ncc(OC)c3c(C(=O)C(=O)N4CCN(C(=O)c5ccccc5)CC4)c[nH]c23)n1,trypan blue,>100 µM